{
  "source": "patent US8188011B1",
  "about": "“Optimization of ligand affinity for RNA targets using mass spectrometry” (Isis Pharmaceuticals, Inc., priority 2000, dated 2012)",
  "test_system": "16S ribosomal RNA fragment (27mer RNA, SEQ ID NO:1)",
  "assay": "Collisionally activated dissociation (CAD) MS/MS of ligand:16S complexes, LCQ ion trap",
  "data": [
    {"smiles": "N[C@@H]1C[C@H](N)[C@@H](O)C(O)[C@H]1O", "note": "(stereo partly shown) [2-DOS, 2-deoxystreptamine]", "values": [
      {"measurement": "E50 (voltage yielding 50% dissociation) of 2-DOS:16S complex", "setting": "CAD of ions at m/z 1758.9", "result": 1.13, "unit": "V"},
      {"measurement": "E50 of bis-(2-DOS):16S complex", "setting": "CAD of ions at m/z 1791.4", "result": 1.13, "unit": "V"},
      {"measurement": "E50 of (2-DOS):16S complex generated from bis-(2-DOS):16S complex", "setting": "MS/MS/MS experiment", "result": 1.17, "unit": "V"},
      {"measurement": "voltage at which complete dissociation of (2-DOS):16S ions generated from bis-(2-DOS):16S complex occurred", "setting": "MS/MS/MS experiment", "result": 1.3, "unit": "V"}
    ]}
  ]
}
